This passage reports CPE inhibition results from PubChem BioAssay AID1621 (Southern Research Specialized Biocontainment Screening …, 2009).

The other results are listed elsewhere or left out. Potency and affinity values are given separately. Active and inactive are the calls of the source. How the calls were made is not given here.

This assay can be described thus: inhibition of WNV-induced cytopathic effect – cell-based, CPE readout (AID 1621). The settings on record: West Nile virus-infected cells, at 10 µM, active compounds read high. (Damage to the host cells serves as the signal in cytopathic effect assays.)
Consider `CCOP(=O)(Nc1ccccc1)OCC`, for which the CPE inhibition is inactive: 0.15%.

With `Cc1cc(SC(NC(=O)c2ccc(F)cc2)C(Cl)(Cl)Cl)ncn1` (stereo not given), the CPE inhibition was inactive: -0.28%.

Regarding `O=[N+]([O-])c1cc([N+](=O)[O-])c(CCN2CCOCC2)c([N+](=O)[O-])c1`, the CPE inhibition was inactive: -1.05%.

As to `Nc1cccc2ccc([As](=O)(O)O)cc12`, the CPE inhibition is inactive: 2.16%.

On to `CCN(N=Nc1nonc1N)c1nonc1N`, for which the CPE inhibition is inactive: -0.2%.

For the compound `CCOC(=O)NC(Sc1ccccc1)C(Cl)(Cl)Cl` (stereo not given), the CPE inhibition was inactive: 0.1%.

With `Cc1ccc(NP(=O)(Oc2cccc(C)c2)Oc2cccc(C)c2)nc1`, the CPE inhibition was inactive: -0.32%.

With `c1ccc(-c2nn[nH]n2)c(-c2nn[nH]n2)c1`, the CPE inhibition is inactive: 0.34%.

`CCNC(=S)/N=C(\N)N[N+](=O)[O-]`: the CPE inhibition is inactive: -0.18%.

In the case of `O=C(NC1CCS(=O)(=O)C1)NP(=S)(Oc1ccccc1)Oc1ccccc1` (stereo not given), the CPE inhibition is inactive: -0.36%.

On to `CCC(=O)N1C2C3N(C(=O)CC)C1C1N(C(=O)CC)C(C(N1C(=O)CC)N3C(=O)CC)N2C(=O)CC`, for which the CPE inhibition is inactive: 0.29%.

Consider `O=C(OC1CN2CCC1CC2)c1ccccc1` (stereo not given), for which the CPE inhibition was inactive: 0.54%.

For `Cc1ccc(OP(=O)(Nc2ccccn2)Oc2ccc(C)cc2)cc1`, the CPE inhibition was inactive: -1.55%.

Regarding `CC(=O)NC(SC(=S)N(CC(C)C)CC(C)C)C(Cl)(Cl)Cl` (stereo not given), the CPE inhibition is inactive: -1%.

Regarding `COC(=O)c1cc2c(s1)N=C(c1ccccc1)N(C)P2(=O)N1CCOCC1` (stereo not given), the CPE inhibition is inactive: -0.09%.

For the compound `CN(C)C(=O)Oc1noc2ccccc12`, the CPE inhibition is inactive: 0.64%.

`O=c1c2cc([N+](=O)[O-])ccc2[nH]c2c([N+](=O)[O-])cc([N+](=O)[O-])cc12`: the CPE inhibition is inactive: -2.01%.

Turning to `Cc1ccccc1OP(=O)(Nc1ccccn1)Oc1ccccc1C`, the CPE inhibition is inactive: 0.71%.

Turning to `CCOc1ccc(C2=NCC(CBr)S2)cc1` (stereo not given), the CPE inhibition was inactive: 0%.

Turning to `O=P1(Nc2nc3ccc(Cl)cc3s2)COc2ccccc2O1` (stereo not given), the CPE inhibition was inactive: -0.58%.

Consider `CC(C)(C)C(=O)NC(Sc1ccccc1)C(Cl)(Cl)Cl` (stereo not given), for which the CPE inhibition was inactive: 0.97%.

`C[C@@H]1C=CCP(=O)(Oc2ccccc2)O1` (stereo not given in full): the CPE inhibition was inactive: 0.4%.

`C[C@H]1OP(=O)(Oc2ccccc2)C[C@@H]2O[C@@H]21` (stereo not given in full): the CPE inhibition is inactive: -0.13%.

For the compound `CC(=O)c1ccc(N2CC2c2ccncc2)cc1` (stereo not given), the CPE inhibition was inactive: -1.04%.

Turning to `CC(=O)Nc1ccc(Oc2c([N+](=O)[O-])cc([N+](=O)[O-])cc2[N+](=O)[O-])cc1`, the CPE inhibition is inactive: 0.63%.

Consider `CC(=O)Nc1ccc([As](=O)(O)O)c(O)c1`, for which the CPE inhibition is inactive: 0.14%.

As for `CC(C)C(=O)NC(Sc1ccccc1)C(Cl)(Cl)Cl` (stereo not given), the CPE inhibition was inactive: -0.5%.

In the case of `O=P(Nc1nccs1)(c1ccccc1)c1ccccc1`, the CPE inhibition was inactive: 0%.

Consider `c1nnnn1CCn1cnnn1`, for which the CPE inhibition is inactive: 0.35%.

In the case of `O=P(Nc1ccccn1)(c1ccc(Br)cc1)c1ccc(Br)cc1`, the CPE inhibition is inactive: -0.82%.

As for `CN(C)C1(CNC(=O)c2ccc(Cl)c(S(N)(=O)=O)c2)CCCCC1`, the CPE inhibition was inactive: 0.34%.

With `C[C@H]1OP(=O)(Oc2ccccc2)[C@H](O)[C@H](O)[C@H]1N=[N+]=[N-]` (stereo not given in full), the CPE inhibition is inactive: -0.07%.

Turning to `O=P(Nc1nc2ccccc2s1)(c1ccccc1)c1ccccc1`, the CPE inhibition is inactive: -0.03%.

Turning to `O=[As](O)(c1ccccc1)c1ccc(O)cc1`, the CPE inhibition was inactive: 0.57%.

On to `O=[N+]([O-])c1ccc(O)c(/C=N/Nc2ccc([N+](=O)[O-])cc2[N+](=O)[O-])c1`, for which the CPE inhibition was inactive: 2.89%.

Regarding `O=[N+]([O-])c1ncn(CCn2cnc([N+](=O)[O-])n2)n1`, the CPE inhibition is inactive: 0.13%.

With `CC(=O)NC(SC(=S)N(C)C)C(Cl)(Cl)Cl` (stereo not given), the CPE inhibition was inactive: -0.03%.

As for `O=C(OC1CN2CCC1CC2)c1cccc(Cl)c1` (stereo not given), the CPE inhibition was inactive: 0.73%.

Consider `Nc1ccc([As](=O)(O)c2ccc([N+](=O)[O-])cc2)cc1`, for which the CPE inhibition was inactive: -0.16%.

On to `C(Cc1nn[nH]n1)Cc1nn[nH]n1`, for which the CPE inhibition is inactive: 0.56%.
